Data source: PubChem BioAssay AID504761 (Drosophila RNAi Screening Center, 2011)
In all, the deposit lists about 22,000 reagents; this is an unselected part of those with a known target gene and a result. Over the whole deposit, 116 (0.52%) are marked active. 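Calls depend on retest data that are not deposited; infection was ranked per plate without normalising between plates; the unit of the infection score is not given.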 Raw values are not corrected between plates. A number with no mark means an inactive call. Names joined by + are all predicted targets of the reagent. Not given: the amount of reagent, the time to read-out.

Purpose: 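Genome-wide fly cell screen for genes dengue virus requires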 (primary screen)
Cells: D.Mel-2 cells from Drosophila
Knock-down reagent: long dsRNA against Drosophila genes
Treatment: infection with dengue virus type 2; dose and infection time not stated
Measurement: 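Cells stained for dengue envelope protein and imaged; percent of infected cells per well on duplicate plates, ranked by infection, with stained nuclei counted for cell number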
Direction: infection score: higher = more virus-infected cells; cell count: higher = more cells in the well
Hit rule: 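Very low infection ranking in both replicate wells (chance probability at most 0.065), then a retest showing infection dropped 1.5-fold or more at p below 0.05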
Calls: active = confirmed: knock-down lowers infection; inactive = not picked or not confirmed

| predicted target | dsRNA | infection score, replicate 1 | infection score, replicate 2 | cell count, replicate 1 | cell count, replicate 2 |
| --- | --- | --- | --- | --- | --- |
| CG31457 | DRSC22935 | 2.8 | 2.44 | 6136 | 7007 |
| CG31457 | DRSC29229 | 13.9 | – | 3989 | 254 |
| qkr54B (quaking related 54B) | DRSC07670 | 23.5 | 11.3 | 4573 | 6003 |
| qkr54B (quaking related 54B) | DRSC24863 | 2.26 | 3.44 | 6803 | 6775 |
| Ir7a (Ionotropic receptor 7a) | DRSC17866 | – | 4.25 | 409 | 1459 |
| osy (oskyddad) | DRSC14903 | 4.61 | 14.8 | 6792 | 5703 |
| osy (oskyddad) | DRSC15979 | 14.2 | 2.93 | 1294 | 649 |
| osy (oskyddad) | DRSC15981 | 3.95 | 15.3 | 6781 | 4421 |
| Pdha (Pyruvate dehydrogenase E1 alpha subunit) | DRSC18413 | 13.2 | 4.59 | 5455 | 5643 |
| Pdha (Pyruvate dehydrogenase E1 alpha subunit) | DRSC27138 | 2.28 | 24.1 | 6581 | 5535 |
| aly (always early) | DRSC08707 | 3.2 | 3.33 | 6276 | 6091 |
| aly (always early) | DRSC21784 | 2.37 | 1.97 | 6674 | 6235 |
| CG34458 | DRSC06925 | 4.96 | 13.3 | 6875 | 6382 |
| Or47b (Odorant receptor 47b) | DRSC07492 | 5.49 | – | 1276 | 405 |
| mol (moladietz) | DRSC01431 | 3.02 | 6.9 | 5854 | 5666 |
| mol (moladietz) | DRSC01912 | 7.3 | 4.96 | 6370 | 5765 |
| mol (moladietz) | DRSC02479 | – | 3.29 | 577 | 7028 |
| mol (moladietz) | DRSC23967 | 17 | 4.11 | 4918 | 6104 |
| Jon44E (Jonah 44E) | DRSC07216 | 6.39 | 3.22 | 6146 | 6779 |
| Jon44E (Jonah 44E) | DRSC25190 | 4.45 | 4.24 | 6333 | 5663 |
| CG1631 | DRSC20535 | 6.79 | 2.33 | 4049 | 6144 |
| lncRNA:CR42491 + RpL22 | DRSC25025 | 2.69 | 3.31 | 1375 | 1390 |
| CG9992 | DRSC20226 | 4.12 | 35.3 | 6233 | 4603 |
| CG9992 | DRSC21643 | 1.27 | 2.79 | 5983 | 5910 |

The list goes on (6 carried over from the part before).
| predicted target | dsRNA | infection score, replicate 1 | infection score, replicate 2 | cell count, replicate 1 | cell count, replicate 2 |
| --- | --- | --- | --- | --- | --- |
| Jon44E (Jonah 44E) | DRSC07216 | 6.39 | 3.22 | 6146 | 6779 |
| Jon44E (Jonah 44E) | DRSC25190 | 4.45 | 4.24 | 6333 | 5663 |
| CG1631 | DRSC20535 | 6.79 | 2.33 | 4049 | 6144 |
| lncRNA:CR42491 + RpL22 | DRSC25025 | 2.69 | 3.31 | 1375 | 1390 |
| CG9992 | DRSC20226 | 4.12 | 35.3 | 6233 | 4603 |
| CG9992 | DRSC21643 | 1.27 | 2.79 | 5983 | 5910 |
| bigmax | DRSC15481 | 15.9 | 8.94 | 6607 | 6768 |
| bigmax | DRSC27542 | 2.62 | 10.8 | 6995 | 2041 |
| CG13840 | DRSC23279 | 0.91 | 2.02 | 6373 | 6492 |
| CG13840 | DRSC28749 | 8.66 | – | 2043 | 378 |
| CG33110 | DRSC16137 | – | – | 369 | 338 |
| CG33110 | DRSC27221 | 9.95 | 7.76 | 6274 | 5957 |
| trol (terribly reduced optic lobes) | DRSC18613 | 10.7 | 10.1 | 1290 | 6691 |
| trol (terribly reduced optic lobes) | DRSC18814 | 17.2 | 0.4 | 5127 | 7023 |
| Egfrap (EGFR adaptor protein) | DRSC09963 | 8.34 | 5.21 | 5227 | 5763 |
| Egfrap (EGFR adaptor protein) | DRSC09964 | 2.04 | 2.2 | 5730 | 5314 |
| Egfrap (EGFR adaptor protein) | DRSC25261 | 4.27 | 2.33 | 6678 | 6522 |
| Rsph3 (Radial spoke head protein 3) | DRSC09696 | 14.4 | 7.59 | 5851 | 6453 |
| Rsph3 (Radial spoke head protein 3) | DRSC10211 | 5.2 | 9.74 | 5671 | 5772 |
| Rsph3 (Radial spoke head protein 3) | DRSC26917 | 26.5 | 16.7 | 6462 | 6872 |
| CG14861 | DRSC14984 | 15.8 | – | 6188 | 428 |
| Arl5 (ADP-ribosylation factor-like 5) | DRSC10785 | 15.1 | 18.9 | 5885 | 5842 |
| Arl5 (ADP-ribosylation factor-like 5) | DRSC25831 | 2.33 | 2.6 | 6211 | 6160 |
| CG31244 | DRSC21589 | 7.8 | 15.6 | 6437 | 6804 |
| CG5104 | DRSC11765 | 5.56 | 1.12 | 6668 | 6426 |
| CG31388 | DRSC15254 | 4.28 | 3.35 | 6513 | 6305 |
| MnM (myomesin and myosin binding protein) | DRSC08423 | 1.51 | 7.44 | 6566 | 5870 |
| CtsL2 (Cathepsin L2) | DRSC06978 | 21.9 | 21.1 | 5480 | 5773 |
| Ubr1 (Ubr1 ubiquitin ligase) | DRSC20148 | 1.21 | 1.65 | 5698 | 5511 |
| CG11920 | DRSC14439 | 3.41 | 3.73 | 5725 | 5608 |
| Magi | DRSC04247 | 21.8 | 12.2 | 6025 | 6594 |
| Magi | DRSC04451 | 13.3 | 27.4 | 6648 | 5958 |
| Magi | DRSC26209 | 18.3 | 3.54 | 5375 | 5872 |
| CG8475 | DRSC03091 | 6.44 | 5.12 | 6134 | 6819 |
| Acp63F (Accessory gland protein 63F) | DRSC08137 | 0.92 | 2.14 | 6180 | 6590 |
| Irbp18 (Inverted repeat binding protein 18 kDa) | DRSC10612 | 2.39 | 4.01 | 5989 | 6189 |
| Gr58c (Gustatory receptor 58c) | DRSC04136 | 3.52 | 2.99 | 7155 | 7054 |
| CG12147 | DRSC12192 | 8.01 | 5.06 | 6216 | 6090 |
| CG12147 | DRSC30029 | 1.25 | 9.31 | 6616 | 6938 |
| Kif3C (Kinesin family member 3C) | DRSC17209 | 2.6 | 1.61 | 6046 | 6695 |
| Kif3C (Kinesin family member 3C) | DRSC17210 | 1.77 | 0.26 | 6483 | 6480 |
